Results from US11649222B2, “Compounds” (UNIVERSITETET I OSLO, priority 2016, dated 2023).
Like-named read-outs stand apart in the source and are kept apart here.

Test system: K. pneumoniae K66-45
Assay type: cell-based
Description: After plating and grown overnight at 37° C., only single colonies, ignoring any touching the edges of the plate, were counted.
10^9 CFU K66-45 (Mueller-Hinton broth, no selection) was plated and grown overnight, 37° C. Only single colonies, ignoring any touching the edges of the plate, were counted.

CN(C[C@H](O)[C@@H](O)[C@H](O)[C@H](O)CO)C(=O)c1ccc(CN(Cc2ccccn2)Cc2ccccn2)nc1 [Example 26, 6-((bis(pyridin-2-ylmethyl)amino)methyl)-N-methyl-N-((2S,3R,4R,5R)-2,3,4,5,6-pentahydroxyhexyl)nicotinamide]
Resistance/mutant frequency (number of colonies) (Example 26 15 mg/L, 1 mg/L MEM): 137 colonies | Resistance/mutant frequency (number of colonies) (Example 26 15 mg/L, 2 mg/L MEM): 115 colonies | Resistance/mutant frequency (number of colonies) (Example 26 15 mg/L, 4 mg/L MEM): 4 colonies | Resistance/mutant frequency (number of colonies) (Example 26 25 mg/L, 1 mg/L MEM): 74 colonies | Resistance/mutant frequency (number of colonies) (Example 26 25 mg/L, 2 mg/L MEM): 35 colonies | Resistance/mutant frequency (number of colonies) (Example 26 50 mg/L, 1 mg/L MEM): 22 colonies | Resistance/mutant frequency (number of colonies) (Example 26 50 mg/L, 2 mg/L MEM): n.c.
